Measured values from several laboratories, pooled; numbers as filed in NIAID ChemDB.

All rows: growth or infection tests; species: Mycobacterium avium

ECn: concentration that inhibits the pathogen or its effect by n%.

smiles	read by	setting	measure	strain or isolate	value
Fc1cccc(-n2c(=S)oc3ccc(F)cc3c2=S)c1	-	14 d	MIC	MY330/88	16 µM
CCOC(=O)c1ccc(-n2c(=O)oc3ccc(F)cc3c2=O)cc1	-	-	MIC	CNCTC MY330/88	32 µM
Clc1ccc(C(Cn2ccnc2)NC/C=C/c2ccccc2)cc1	-	-	MIC	CIP103317	>16 µg/mL
CCc1cc(C(N)=S)ccn1	-	-	MIC	168-4	2.5 µg/mL
CCCCNC(=O)c1cc([N+](=O)[O-])cc([N+](=O)[O-])c1	visual reading	-	MBC	-	512 µg/mL
CC1(C)Nc2ccc(Cl)cc2C(=S)N1c1cccc(Cl)c1	-	-	MIC	MY330/88	125 µg/mL
CC[C@H]1OC(=O)[C@H](C)[C@@H](O[C@H]2C[C@@](C)(OC)[C@@H](O)[C@H](C)O2)[C@H](C)[C@@H](O[C@@H]2O[C@H](C)C[C@H](N(C)C)[C@H]2O)[C@](C)(OC)C[C@@H](C)C(=O)[C@H](C)[C@@H](O)[C@]1(C)O	-	-	MIC	-	2 µg/mL
Fc1ccc(C(Cn2ccnc2)NCc2ccc(-c3ccccc3)cc2)cc1	-	-	MIC	CIP103317	8 µg/mL
O=c1oc2cc(Cl)ccc2c(=O)n1-c1ccc(F)cc1	-	-	MIC	CNCTC MY330/88	32 µM
Fc1ccc(C(Cn2ccnc2)NCc2cccc3ccccc23)cc1	-	-	MIC	CIP103317	8 µg/mL
NC(=S)N=Nc1c(S)n(-c2ccccc2)c2ccccc12	-	-	MIC	CNCTC MY66/72	16 µM
S=c1oc2ccc(Br)cc2c(=S)n1-c1ccc(Br)cc1	-	21 d	MIC	MY330/88	32 µM
CCCOc1cccc(NC(=O)OCC[NH+]2CCCC2)c1	-	-	MIC	MY330/88	500 µM
COc1ccc2oc(=S)n(-c3ccc(C)cc3)c(=S)c2c1	-	21 d	MIC	MY330/88	32 µM
C[C@H](NC(=O)OCc1ccccc1)c1cnc(-c2ccc([N+](=O)[O-])cc2)[nH]1	-	14 d	MIC	MY330/88	>125 µM
O=c1oc2ccc(Br)cc2c(=S)n1-c1ccccc1	-	21 d	MIC	MY330/88	16 µM
CCCCCCCCCOc1cccc(NC(=O)OCC[NH+]2CCCC2)c1	-	-	MIC	MY330/88	32 µM
Clc1ccc(C(Cn2ccnc2)NCc2ccc(-c3ccccc3)cc2)cc1	-	-	MIC	CIP103317	8 µg/mL
CC(=O)/C(N=Nc1ccc(C(=O)N/N=C/c2ccc([N+](=O)[O-])o2)cc1)=C(/O)c1ccccc1	-	-	MIC	-	>12.5 µg/mL
Clc1ccc(C(Cn2ccnc2)NCc2cccc3ccccc23)c(Cl)c1	-	-	MIC	CIP103317	8 µg/mL
CCn1c(S)c(N=NC(N)=[NH2+])c2ccccc21	-	-	MIC	CNCTC MY80/72	250 µM
CC(C)[C@H](NC(=O)OCc1ccccc1)c1cnc(-c2ccc([N+](=O)[O-])cc2)[nH]1	-	21 d	MIC	MY330/88	>125 µM
C[C@H]1COc2c(N3CCN(C)CC3)c(F)cc3c(=O)c(C(=O)O)cn1c23	-	-	MIC90	36 strains	6.25 µg/mL
O=C1C(=S)N(c2ccccc2)c2ccccc21	-	-	MIC	CNCTC MY66/72	63 µM
COc1c(N2CCNC(C)C2)c(F)cc2c(=O)c(C(=O)O)cn(C3CC3)c12	-	-	MIC90	36 strains	6.25 µg/mL
CCCCCN1C(=S)C(=O)c2ccccc21	-	-	MIC	CNCTC MY66/72	32 µM
CC1COc2c(C3(N)CC3)c(F)cc3c(=O)c(C(=O)O)cn1c23	-	-	MIC90	36 strains	100 µg/mL
O=c1oc2ccc(F)cc2c(=O)n1-c1ccc(C(F)(F)F)cc1	-	-	MIC	CNCTC MY330/88	8 µM
COc1ccc2oc(=O)n(-c3ccc(Cl)c(Cl)c3)c(=S)c2c1	-	14 d	MIC	MY330/88	62.5 µM
CC[C@H]1OC(=O)[C@H](C)[C@@H](O[C@H]2C[C@@](C)(OC)[C@@H](O)[C@H](C)O2)[C@H](C)[C@@H](O[C@@H]2O[C@H](C)C[C@H](N(C)C)[C@H]2O)[C@](C)(OC)C[C@@H](C)C(=O)[C@H](C)[C@@H](O)[C@]1(C)O	-	-	MIC90	36 strains	25 µg/mL
O=C(OCc1ccccc1)N1CCC[C@H]1c1cnc(-c2ccc([N+](=O)[O-])cc2)[nH]1	-	14 d	MIC	MY330/88	>250 µM
O=c1oc2ccc(Br)cc2c(=O)n1-c1cccc(F)c1	-	-	MIC	CNCTC MY330/88	31 µM
CC(=O)NC[C@H]1CN(c2ccc(N3CCS(=O)(=O)CC3)c(F)c2)C(=O)O1	-	-	MIC	-	2 µg/mL
C[C@@H]1CN(c2c(F)c(N)c3c(=O)c(C(=O)O)cn(C4CC4)c3c2F)C[C@H](C)N1	-	-	MIC90	36 strains	1.56 µg/mL
CCOC(=O)/C(N=Nc1ccc(C(=O)N/N=C/c2ccc([N+](=O)[O-])o2)cc1)=C(\C)O	-	-	EC50	-	>12.5 µg/mL
CCCCCCCCOc1ccc(NC(=O)OCC[NH+]2CCCC2)cc1	-	-	MIC	MY330/88	16 µM
COc1ccc(-n2c(C)nc3ccc(Cl)cc3c2=S)cc1	-	-	MIC	MY330/88	125 µg/mL
Cc1c(F)c(N2CCNC(C)C2)cc2c1c(=O)c(C(=O)O)cn2C1CC1	-	-	MIC90	18 strains	25 µg/mL
Cc1ccc2oc(=O)n(-c3ccccc3)c(=S)c2c1	-	14 d	MIC	MY330/88	4 µM
Clc1ccc(C(Cn2ccnc2)NCc2cccc3ccccc23)cc1	-	-	MIC	CIP103317	8 µg/mL
Cc1ccc2oc(=S)n(-c3ccc(Cl)cc3)c(=S)c2c1	-	14 d	MIC	MY330/88	4 µM
CC(C)[C@H](NC(=O)OCc1ccccc1)c1cnc(-c2ccccc2)[nH]1	-	14 d	MIC	MY330/88	>250 µM
Fc1cccc(-n2c(=S)oc3ccc(Cl)cc3c2=S)c1	-	14 d	MIC	MY330/88	62.5 µM
CC[C@@H](C)[C@H](NC(=O)OCc1ccccc1)c1cnc(-c2ccc([N+](=O)[O-])cc2)[nH]1	-	14 d	MIC	MY330/88	>125 µM
Cc1c(CN2CCSCC2)cc(-c2cccc3ccccc23)n1-c1ccc(F)cc1	-	-	MIC	103317	>16 µg/mL

The last 4 rows once more:

smiles | read by | setting | measure | strain or isolate | value
CC(C)[C@H](NC(=O)OCc1ccccc1)c1cnc(-c2ccccc2)[nH]1 | - | 14 d | MIC | MY330/88 | >250 µM
Fc1cccc(-n2c(=S)oc3ccc(Cl)cc3c2=S)c1 | - | 14 d | MIC | MY330/88 | 62.5 µM
CC[C@@H](C)[C@H](NC(=O)OCc1ccccc1)c1cnc(-c2ccc([N+](=O)[O-])cc2)[nH]1 | - | 14 d | MIC | MY330/88 | >125 µM
Cc1c(CN2CCSCC2)cc(-c2cccc3ccccc23)n1-c1ccc(F)cc1 | - | - | MIC | 103317 | >16 µg/mL

An empty or dashed field is not shown. Conditions beyond the fields shown may differ between rows. MIC50, MIC90 and the like: level of inhibition, or share of isolates inhibited.